Results: patent US20260069689A1, “ANTI-SARS-COV-2-SPIKE GLYCOPROTEIN ANTIBODIES AND ANTIGEN-BINDING FRAGMENTS” (published 2026)

Legend:
Assay in all cases: cell-based or functional assay
[1] = target: SARS-CoV-2 S protein variant BA.1.1 (Omicron) (SARS-CoV-2)
[2] = target: SARS-CoV-2 S protein variant BA.2 (Omicron) (SARS-CoV-2)
[3] = target: SARS-CoV-2 S protein variant BA.1 (Omicron) (SARS-CoV-2)
[4] = target: SARS-CoV-2 S protein variant BA.2.12.1 (Omicron) (SARS-CoV-2)

For mAb10933 (Casirivimab) (antibody), the Fold Change in IC50 over Ref Virus [1] was > 1340 fold, the Fold Change in IC50 over Ref Virus [2] was 462 fold and the IC50 [2] was 6.8 nM. For the same substance, the IC90 [2] was 80.4 nM, the Fold Change in IC50 over Ref Virus [3] was > 1730 fold and the Fold Change in IC50 over Ref Virus [4] was > 702 fold.
